{
  "source": "patent US8546386B2",
  "about": "“Corrosion and microbial control in hydrocarbonaceous compositions” (Dow Global Technologies LLC, priority 2008, dated 2013)",
  "key": {"[1]": {"test_system": "Pseudomonas aeruginosa ATCC#33988", "assay": "Microbial testing in biodiesel fuel, plate count", "assay_type": "cell-based", "conditions": "additive 500 ppm, no biocide, Week 3"}, "[2]": {"test_system": "Yarrowia tropicalis ATCC#48138", "assay": "Microbial testing in biodiesel fuel, plate count", "assay_type": "cell-based", "conditions": "additive 1500 ppm, no biocide, Week 4"}},
  "note": "Only a part of the results on these compounds is given; other tests are left out.",
  "data": [
    {"smiles": "OCCN(CCO)CCO", "values": [
      {"measurement": "Bacteria (Ps. aeruginosa) count", "setting": "[1]", "value": "2.40E+06", "unit": "Bact/ml"},
      {"measurement": "Yeast (Y. tropcalis) count", "setting": "[2]", "value": "1.30E+02", "unit": "Yeast/ml"}
    ]}
  ]
}
